Experimental data: publication PMC3866925, “Functional characterization of two members of histidine phosphatase superfamily in Mycobacterium tuberculosis” (BMC Microbiology, 2013)

Tested on: O=C(O)[C@H](O)COP(=O)(O)O
Assay: purified protein
Conditions: pH 7.0

Substance: C-His-Rv0489 (Mycobacterium tuberculosis H37Rv)
- Km: 400 ± 20 µM
- kcat/Km: 1.04e+07 M⁻¹ s⁻¹
